{"source": "PubChem BioAssay AID504761 | Drosophila RNAi Screening Center, 2011", "purpose": "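Genome-wide fly cell screen for genes dengue virus requires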 (primary screen)", "system": "D.Mel-2 cells from Drosophila", "knock-down reagent": "long dsRNA against Drosophila genes", "conditions": "infection with dengue virus type 2; dose and infection time not stated", "detection": "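Per well on two replicate plates, imaging gave the percent of cells positive for viral envelope protein, ranked by infection, and a nuclear count of cells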", "reading the numbers": "infection score: higher = more virus-infected cells", "rule for the call": "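Very low infection ranking in both replicate wells (chance probability at most 0.065), then a retest showing infection dropped 1.5-fold or more at p below 0.05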", "calls": "active = confirmed: knock-down lowers infection; inactive = not picked or not confirmed", "note": "In all, the deposit lists about 22,000 reagents; shown is an unselected part of those with a known target gene and a result. In the full data, 116 (0.52%) are marked active. 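Calls depend on retest data that are not deposited; infection was ranked per plate without normalising between plates; the unit of the infection score is not given.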 Reagents against one gene are numbered here. Further read-outs or replicates are left out here. The record does not give: the amount of reagent, the time to read-out."}
{"target": "CG13196", "dsRNA no.": 1, "infection score, replicate 1": 5.67, "outcome": "inactive"}
{"target": "Sytbeta (Synaptotagmin beta)", "dsRNA no.": 1, "infection score, replicate 1": 3.82, "outcome": "inactive"}
{"target": "Sytbeta (Synaptotagmin beta)", "dsRNA no.": 2, "infection score, replicate 1": 1.89, "outcome": "inactive"}
{"target": "Msp300 (Muscle-specific protein 300 kDa)", "dsRNA no.": 1, "infection score, replicate 1": 1.21, "outcome": "inactive"}
{"target": "Msp300 (Muscle-specific protein 300 kDa)", "dsRNA no.": 2, "infection score, replicate 1": 2.75, "outcome": "inactive"}
{"target": "Msp300 (Muscle-specific protein 300 kDa)", "dsRNA no.": 3, "infection score, replicate 1": 5.76, "outcome": "inactive"}
{"target": "Msp300 (Muscle-specific protein 300 kDa)", "dsRNA no.": 4, "infection score, replicate 1": 8.7, "outcome": "inactive"}
{"target": "Msp300 (Muscle-specific protein 300 kDa)", "dsRNA no.": 5, "infection score, replicate 1": 4.88, "outcome": "inactive"}
{"target": "Msp300 (Muscle-specific protein 300 kDa)", "dsRNA no.": 6, "infection score, replicate 1": 8.42, "outcome": "inactive"}
{"target": "Dnaaf4 (Dynein axonemal assembly factor 4)", "dsRNA no.": 1, "infection score, replicate 1": 11.2, "outcome": "inactive"}
{"target": "CG17549", "dsRNA no.": 1, "infection score, replicate 1": 15.9, "outcome": "inactive"}
{"target": "CG30355", "dsRNA no.": 1, "infection score, replicate 1": 19.6, "outcome": "inactive"}
